Experimental findings from patent EP1607399B1 (priority 2000, dated 2001) are described below.

In this experiment the test system is RPMI 8322 human melanoma cells. As to the kind of experiment: Cell viability (CellTiter 96 dye conversion assay). Format: cell-based. Particulars: read-out: µM to 50% cell viability; RPMI 8322 cells, 4 days with compound, 1µM to 10mM, 1% DMSO, triplicate.

Structures are written as SMILES.

Consider `NCCOP(=O)(N(CCCl)CCCl)N(CCCl)CCCl`, for which the IC50 was over 500 µM.
